# Sequence variants of PSTVd loop 6 after infection

Data from the supplement of Wu et al. 2024, doi:10.1371/journal.ppat.1012142.

Region: loop 6 of PSTVd (intermediate strain), upper and lower strand joined, each 5' to 3', the first 5 letters being the upper strand, closing pairs included. Wild type: UGACCGCGAG. Varied positions (N): UNNNCGNNNG.

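Three N. benthamiana plants were inoculated with the whole mutant pool. Samples came from the inoculated region at 5 days, the leaf margin at 10 and upper systemic leaves at 12.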

Numbers give reads per thousand; 0 = not seen among the reads, higher = more abundant.
Each site shows the three plants.
"Pool" is the share in the plasmid pool used as inoculum, on the same scale.
The inoculated region was read from the minus strand, the other sites from the plus strand.
Samples held 36,220 to 57,551 reads, so the smallest values rest on one or two reads.
Sequences that differ at fixed positions probably stem from PCR or sequencing errors, and defective variants can be carried along by functional ones.
Wild type was 20.7 per thousand in the pool and the most common sequence in every sample (inoculated region 195, 198, 203; leaf margin 629, 591, 734; systemic leaves 942, 870, 868).

sequence | pool | inoculated region | leaf margin | systemic leaves
UGUGCGGUUG | 0.301 | 0.139 0.0719 0.0922 | 0 0 0 | 0 0 0
UGUGCGUAAG | 0.235 | 0.104 0.0898 0.0369 | 0 0 0 | 0 0 0
UGUGCGUACG | 0.248 | 0.139 0.180 0.0369 | 0 0 0 | 0 0 0
UGUGCGUAGG | 0.248 | 0.0695 0.0898 0.0369 | 0 0 0.0232 | 0 0 0
UGUGCGUAUG | 0.353 | 0.0521 0.126 0.0369 | 0.359 0 0 | 0 0 0
UGUGCGUCAG | 0.340 | 0.104 0.144 0.0922 | 0 0 0 | 0 0 0
UGUGCGUCCG | 0.209 | 0.0869 0.0359 0.129 | 0.0276 0 0 | 0 0 0
UGUGCGUCGG | 0.248 | 0.139 0.0898 0.0369 | 0.0552 0 0.0232 | 0 0 0
UGUGCGUCUG | 0.353 | 0.0869 0.0719 0.0553 | 0 0 0 | 0 0 0
UGUGCGUGAG | 0.353 | 0.156 0.0898 0.0553 | 0 0 0.0232 | 0 0.0404 0.0205
UGUGCGUGCG | 0.248 | 0.0869 0.162 0.0369 | 0 0 0 | 0 0 0
UGUGCGUGGG | 0.261 | 0.174 0.0898 0.0738 | 0 0 0 | 0 0 0.0205
UGUGCGUGUG | 0.301 | 0.104 0.162 0.0738 | 0 0 0.0232 | 0 0 0
UGUGCGUUAG | 0.484 | 0.122 0.0719 0.129 | 0.0276 0 0 | 0 0 0.0410
UGUGCGUUCG | 0.235 | 0.0695 0.108 0.0738 | 0.0276 0 0 | 0 0 0
UGUGCGUUGG | 0.314 | 0.174 0.0719 0.0369 | 0 0 0 | 0 0 0
UGUGCGUUUG | 0.379 | 0.156 0.126 0.111 | 0.0276 0 0.0696 | 0 0 0.0205
UGUGCUCCUG | 0.0131 | 0 0 0 | 0 0 0 | 0 0 0
UGUGCUGCAG | 0.0131 | 0 0 0 | 0 0 0 | 0 0 0
UGUUCACGAG | 0.0131 | 0 0 0 | 0 0 0 | 0 0 0
UGUUCAGCGG | 0.0131 | 0 0 0 | 0 0 0 | 0 0 0
UGUUCGAAAG | 0.183 | 0.122 0.108 0.0738 | 0 0 0 | 0 0 0
UGUUCGAACG | 0.275 | 0.122 0.126 0.148 | 0 0 0 | 0 0 0
UGUUCGAAGG | 0.261 | 0.0695 0.0719 0.0369 | 0 0 0 | 0 0 0.0205
UGUUCGAAUG | 0.418 | 0.156 0.0719 0.111 | 0 0 0 | 0 0 0
UGUUCGACAG | 0.340 | 0.156 0.126 0.148 | 0.0276 0 0 | 0 0 0
UGUUCGACCG | 0.314 | 0.174 0.126 0.0738 | 0.0276 0 0.0464 | 0 0 0
UGUUCGACGG | 0.418 | 0.0869 0.0898 0.0553 | 0 0 0 | 0 0 0
UGUUCGACUG | 0.209 | 0.139 0.0898 0.0553 | 0 0 0 | 0 0 0
UGUUCGAGAG | 0.353 | 0.104 0.0719 0.111 | 0.0276 0 0 | 0 0 0
UGUUCGAGCG | 0.183 | 0.0869 0.108 0.111 | 0 0 0.0232 | 0 0 0
UGUUCGAGGG | 0.170 | 0.0348 0.0180 0.0922 | 0 0 0 | 0 0 0
UGUUCGAGUG | 0.183 | 0.156 0.0719 0.0922 | 0.0276 0 0.0232 | 0 0 0
UGUUCGAUAG | 0.301 | 0.0869 0.126 0.0738 | 0.0276 0 0.209 | 0 0 0
UGUUCGAUCG | 0.471 | 0.122 0.108 0.0738 | 0 0 0 | 0 0 0
UGUUCGAUGG | 0.418 | 0.0521 0.108 0.0553 | 0 0 0.0232 | 0 0 0
UGUUCGAUUG | 0.379 | 0.156 0.0180 0.0738 | 0.0276 0 0.0232 | 0 0 0
UGUUCGCAAG | 0.157 | 0.0695 0.162 0.240 | 0.0828 0 0.0464 | 0 0 0
UGUUCGCACG | 0.196 | 0.156 0.0359 0.0738 | 0 0 0 | 0 0 0.0205
UGUUCGCAGG | 0.196 | 0.139 0.0898 0.0738 | 0 0 0.0232 | 0 0 0
UGUUCGCAUG | 0.183 | 0.191 0.0719 0.111 | 0 0 0 | 0 0 0.0205
UGUUCGCCAG | 0.301 | 0.104 0.108 0.0922 | 0 0 0.0464 | 0 0 0
UGUUCGCCCG | 0.261 | 0.104 0.0898 0.129 | 0 0 0 | 0 0 0
UGUUCGCCGG | 0.209 | 0.104 0.108 0.0553 | 0 0 0 | 0 0 0
UGUUCGCCUG | 0.248 | 0.104 0.0359 0.0184 | 0.0276 0.0252 0 | 0 0 0
UGUUCGCGAG | 0.431 | 0.261 0.269 0.424 | 0.994 1.61 0.0232 | 0.0359 0.0404 0.164
UGUUCGCGAU | 0.0131 | 0.0174 0.0359 0.111 | 0.0276 0 0.0464 | 0 0 0
UGUUCGCGCG | 0.183 | 0.226 0.0719 0.0738 | 0 0 0.0232 | 0 0 0
UGUUCGCGGG | 0.196 | 0.139 0.0359 0.0184 | 0 0 0.0232 | 0 0 0
UGUUCGCGUG | 0.170 | 0.0695 0.144 0.0738 | 0.0276 0.0252 0 | 0 0 0
UGUUCGCUAG | 0.235 | 0.0869 0.0539 0.111 | 0 0 0 | 0 0 0
UGUUCGCUCG | 0.261 | 0.0521 0.0898 0.129 | 0 0 0 | 0 0 0
UGUUCGCUGG | 0.222 | 0.0521 0.0539 0.0738 | 0 0 0.0232 | 0 0 0